{
  "source": "patent US4970199A",
  "about": "“Steroidal glycolipids as host resistance stimulators against viral infection” (priority 1989, dated 1990)",
  "origin": "cited, not measured here",
  "tested_on": "HIV",
  "conditions": "recombinant IL-2; cited from earlier work",
  "data": [
    {"substance": "Interleukin-2: Protein made by white blood cells that mediates production of interferon", "values": [
      {"measurement": "preliminary results of therapy", "result": "not encouraging"}
    ]}
  ]
}
